Measured values from paper PMC4137731.
The comparison behind a weaker result is the experiment's own reference, which may not be listed here. Where a protein sequence is shown, tags need not be part of it.

Target: T1, PaSSB (Pseudomonas aeruginosa PAO1) (UniProt P40947)
T1 sequence (looked up): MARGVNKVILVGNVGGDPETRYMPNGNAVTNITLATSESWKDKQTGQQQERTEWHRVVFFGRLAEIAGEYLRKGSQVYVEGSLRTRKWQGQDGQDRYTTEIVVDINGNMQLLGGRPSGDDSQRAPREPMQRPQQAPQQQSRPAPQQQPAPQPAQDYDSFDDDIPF
Test: EMSA
Conditions: no stable complex (ND), smears indicate interaction, up to 5000 nM; 20 mM Tris-HCl pH 8.0, 100 mM NaCl, 25°C 30 min, 1.7 nM DNA, protein 0-5000 nM; native 8% PAGE in TBE at 4°C; recombinant protein; residues 1-165; label: 5' 32P; single-stranded DNA

Question: Does TTTTTTTTTTTTTTTTTTTT [dT20] bind?
Answer: binds more weakly
